Key:
[1] = molecular target: human natriuretic peptide receptor A (NPR-A) (human) (UniProt P16066); assay: cell-based or functional assay
[2] = molecular target: human natriuretic peptide receptor B (NPR-B) (human) (UniProt P20594); assay: cell-based or functional assay

CDNP (peptide; modification not given)
EC50 on NPR-A (nM), whole cell cGMP assay [1]: 73 nM | EC50 on NPR-B (nM), whole cell cGMP assay [2]: 25 nM | efficacy relative to CNP22, NPR-B membrane assay (first set) (% of CNP22 efficacy) [2]: 56 | potency relative to CNP22, NPR-B membrane assay (first set) (fold less potent than CNP22) [2]: 5.5 | selectivity for NPR-B over NPR-A (EC50 ratio) [2]: 3 fold
